The subject of data set [1] is NaV1.8. The data set is classed as cell-based, mouse.
In data set [2] the test system is total and TTX-s NaV current in wild-type DRG neurons. As to the kind of experiment: Persistent total NaV current, manual patch clamp, mouse DRG neurons. The format is cell-based. For orientation: Patch clamp records ionic current or voltage across a cell membrane.

The source of these data is publication PMC10147923, “Pain-causing stinging nettle toxins target TMEM233 to modulate NaV1.7 function” (Nature Communications, 2023).

Entries after “also recorded” stand apart in the source; their conditions may differ. Read-outs that look alike come from different tables or passages of the source. Positions of bridges follow the written chain, without caps; N, C: chain ends. Residues, ends and D or L forms follow the SMILES beside them.

Consider `CC[C@H](C)[C@@H]1NC(=O)[C@H](CCCNC(=N)N)NC(=O)[C@H](Cc2ccccc2)NC(=O)[C@H](CC(C)C)NC(=O)[C@H](CO)NC(=O)[C@@H]2CSSC[C@@H]3NC(=O)[C@H]([C@@H](C)O)NC(=O)[C@H](CSSC[C@H](NC(=O)[C@H](CCCNC(=N)N)NC(=O)[C@@H]4CCCN4C(=O)[C@@H](N)CC(C)C)C(=O)N[C@@H](CC(=O)O)C(=O)N[C@@H](CO)C(=O)N4CCC[C@H]4C(=O)N[C@@H](Cc4ccccc4)C(=O)N2)NC(=O)[C@H](CCCCN)NC(=O)[C@H](CC(=O)O)NC(=O)CNC(=O)[C@H](CSSC[C@@H](C(=O)N[C@H](C(=O)N2CCC[C@H]2C(=O)N[C@@H](CC(=O)O)C(=O)N[C@H](C(=O)O)C(C)C)C(C)C)NC(=O)[C@H](CC(C)C)NC(=O)CNC(=O)[C@H](Cc2ccccc2)NC(=O)[C@H]([C@@H](C)CC)NC(=O)[C@@H]2CCCN2C(=O)[C@H](CC(C)C)NC(=O)[C@@H]2CCCN2C(=O)[C@H](C(C)C)NC3=O)NC(=O)[C@H](CC(C)C)NC(=O)CNC1=O` [ExTxA, excelsatoxin A] (H-LPRCDSPFCSLFRIGLCGDKCTCVPLPIFGLCVPDV-OH; disulfide 4-21, 9-23, 17-32), for which, in data set [1], the “effect on NaV1.8 persistent current” value is “slightly increased persistent currents of NaV1.8 channels; also recorded: Smaller, but statistically significant effects”. In addition, in data set [2], the “reversibility of effects on NaV function” value is given as “near-irreversible effects”. The “effect on persistent NaV current / NaV inactivation in DRG neurons” value in data set [2] (ExTxA 100 nM) is recorded as “induces persistent NaV currents; also recorded: striking inhibition of NaV inactivation, leading to persistent currents”.
As for `NC1=N[C@H](O)[C@H]2[C@H]3O[C@]4(O)O[C@@H]([C@@H](O)[C@@]2(N1)[C@@H]4O)[C@]3(O)CO` [TTX, tetrodotoxin, reference compound], in data set [2], the “effect on persistent NaV current / NaV inactivation in DRG neurons” value is “blocked”.
